Pooled drug test results. Numbers come from NIAID ChemDB, via PubChem.

All rows: tests in culture; agent: Herpes simplex virus 1

Two numbers with a dash give a range or band. Blank or dashed fields: not listed here. ECn: concentration that inhibits the pathogen or its effect by n%. Rows are shuffled and stem from different studies.

SMILES,cell line,strain or isolate,endpoint,read by,value
Cc1cn([C@@H]2O[C@H](CO)[C@@H](O)[C@@H]2O)c(=O)[nH]c1=O,HELF,CHR-3,EC50,cytopathic effect,0.66 µg/mL
O=c1[nH]c(=O)n([C@H]2C[C@H](O)[C@@H](CO)O2)cc1F,HELF,42-78,EC50,plaque count,156 µM
Nc1ccn([C@@H]2O[C@H](CO)[C@@H](O)[C@@H]2O)c(=O)n1,ESM,KOS,EC50,cytopathic effect,0.02 µg/mL
Cc1cn([C@@H]2O[C@H](COP(=O)(O)O)[C@@H](O)[C@H]2O)c(=O)nc1N,,McIntyre,EC50,,>400 µg/mL
Cc1c(NC(=O)OC(C)(C)C)ccc2nc(N(C)CC(=O)N(C)CCc3ccccn3)oc(=O)c12,VERO,,EC90,plaque count,>20 µM
C=C(N=CC)c1nc(-c2ccc(OC)cc2)n([C@@H]2O[C@H](CO)[C@@H](O)[C@H]2O)n1,E6SM,KOS,EC50,cytopathic effect,300 µg/mL
OC[C@H]1O[C@@H](c2cc(/C=C/I)c(F)cc2F)C[C@@H]1O,E6SM,KOS,EC50,cytopathic effect,48 µg/mL
CCCCc1cn([C@@H]2OC3COP(=O)(O)OC3[C@H]2O)c(=O)nc1N,,KOS,EC50,,>400 µg/mL
O[C@@H]1[C@H](O)[C@H](O)CO[C@H]1n1c(Br)nc2cc(Cl)c(Cl)cc21,HFF,,EC50,plaque count,>50 µM
CC=NC(=N)c1nc(-c2cccc(C)c2)n(Cc2ccccc2)n1,E6SM,VMW 1837,EC50,cytopathic effect,>4 µg/mL
NC1=NC2C(C=CN2CC(CO)CCO)C(=O)N1,VERO,,EC50,cytopathic effect,5.3 µg/mL
Cc1cn([C@@H]2O[C@H](CO)[C@@H](O)[C@@H]2O)c(=O)[nH]c1=O,HELF,V3,EC50,plaque count,3.1 µM
[N-]=[N+]=NC(CBr)c1cc([C@H]2C[C@H](O)[C@@H](CO)O2)c(F)cc1F,E6SM,F,EC50,cytopathic effect,>400 µg/mL
Cc1cn([C@@H]2O[C@H](CO)[C@@H](O)[C@@H]2F)c(=O)[nH]c1=O,HELF,77,EC50,plaque count,0.26 µM
CO[C@H](CO)[C@@H](O)CCn1cnc2c(N)ncnc21,E6SM,F,EC50,cytopathic effect,>400 µg/mL
CCC(=O)OCCOCn1cnc2c(=O)oc(N)nc21,VERO,,EC50,plaque count,400 µM
Nc1nc2c(ncn2COC(CO)CO)c(=O)[nH]1,,OST (TK-),EC50,,44 µg/mL
O=c1[nH]c(=O)n([C@H]2C[C@H](O)[C@@H](CO)O2)cc1I,PRK,,EC50,cytopathic effect,0.1 µg/mL
Nc1ncnc2c1ncn2CC[C@H](O)CCO,E6SM,McIntyre,EC50,cytopathic effect,>400 µg/mL
Nc1nc(=O)n([C@@H]2O[C@H](CO)[C@@H](O)[C@@H]2F)cc1I,VERO,F-ACV-C4,EC50,plaque count,22 µM
O=c1[nH]c(=O)n([C@H]2C[C@H](O)[C@@H](CO)O2)cc1/C=C/Br,T-21,KOS,EC50,cytopathic effect,0.005 µg/mL
CCc1cn([C@H]2C[C@H](O)[C@@H](CO)O2)c(=O)[nH]c1=O,PRK,KOS,EC50,cytopathic effect,0.7 µg/mL
Nc1nc2c(ncn2COCCO)c(=O)o1,VERO,,EC50,plaque count,100 µM
Nc1nc(Cl)c2ncn([C@H]3CO[C@@H](CO)C3)c2n1,E6SM,KOS,EC50,cytopathic effect,300 µg/mL
O=c1[nH]c(=O)n([C@H]2C[C@H](O)[C@@H](COP(=O)(O)O)O2)cc1I,PRK,McIntyre,EC50,cytopathic effect,0.2 µg/mL
COc1cc(OC)c(NC(=S)Nc2ccc(NC=O)cc2Cl)cc1Cl,HFF,Patton,EC50,ELISA,3 µg/mL
Cc1c(NC(=O)CCCNC(=O)OC(C)(C)C)ccc2nc(NC(C)(C)C(=O)N(C)CCc3ccccn3)oc(=O)c12,VERO,,EC90,plaque count,>12.5 µM
CCOCn1ccc(=O)[nH]c1=O,,,EC50,plaque count,>100 µM
Cc1c(NC(=O)OC(C)(C)C)ccc2nc(N(CC(C)C)C(=O)NCc3cccnc3)oc(=O)c12,VERO,,EC90,plaque count,>25 µM
CC=NC(=N)c1nc(-c2ccc(OC)cc2)n(COCCO)n1,E6SM,VMW 1837,EC50,cytopathic effect,>200 µg/mL
CCN(C(=O)N(C)CCc1cccnc1)c1nc2ccc(NC(=O)OC(C)(C)C)c(C)c2c(=O)o1,VERO,,EC90,plaque count,7.6 µM
O=c1[nH]c(=O)n([C@@H]2O[C@H](CO)[C@@H](O)[C@@H]2O)cc1/C=C/Br,HELF,77,EC50,plaque count,0.045 µM
Nc1nc2c(ncn2CC[C@@H](O)CO)c(=O)[nH]1,VERO,C1 (101),EC50,plaque count,6.8 µM
CC(C)Nc1nc2cc(Cl)c(Cl)cc2n1[C@H]1O[C@@H](CO)[C@H](O)[C@@H]1O,HFF,,EC50,plaque count,>53 µM
O=c1[nH]c(=O)n([C@H]2C[C@H](O)[C@@H](CO)O2)cc1/C=C/Br,PRK,VMW1837 (TK-),EC50,cytopathic effect,150 µg/mL
Cn1cc(C(=O)NCc2ccc(Cl)cc2)c(=O)c2cc(CN3CCOCC3)ccc21,HFF,L5047716 ACV resistant,EC50,plaque count,2.6 µM
Nc1nc2c(ncn2[C@@H]2C[C@H](CO)[C@H]2CO)c(=O)[nH]1,,,EC50,plaque count,0.01–0.1 µM
C=C(N=CC)c1nc(-c2cccc(C)c2)n([C@@H]2O[C@H](CO)[C@@H](O)[C@H]2O)n1,E6SM,KOS,EC50,cytopathic effect,>200 µg/mL
Nc1ncnc2c1ncn2C[C@@H](CO)OCP(=O)(O)O,ESM,McIntyre,EC50,cytopathic effect,2 µg/mL
Nc1nc2c(ncn2C[C@]2(CO)C[C@H]2CO)c(=O)[nH]1,VERO,,EC50,cytopathic effect,1.3 µg/mL
CC=NC(=N)c1nc(-c2cccc(OC)c2)n(Cc2ccccc2)n1,E6SM,VMW 1837,EC50,cytopathic effect,>10 µg/mL
O=c1[nH]c(=O)n(COCCO)cc1F,,,EC50,plaque count,>100 µM
CC=NC(=N)c1nc(-c2ccccc2)n(COCCO)n1,E6SM,KOS,EC50,cytopathic effect,>40 µg/mL
OC[C@H]1O[C@@H](c2cc(/C=C/Br)c(F)cc2F)C[C@@H]1O,E6SM,VMW1837 (TK-),EC50,cytopathic effect,>400 µg/mL
CO[C@H](CO)[C@@H](O)CCn1cnc2c(=O)[nH]c(N)nc21,E6SM,KOS,EC50,cytopathic effect,>400 µg/mL
Nc1ncnc2c1ncn2[C@@H]1C[C@H](CO)[C@@H](O)[C@@H]1O,VERO,F-ACV-C4,EC50,plaque count,56 µM
C=C(N=CC)c1nc(-c2ccc(C)cc2)n(C2O[C@H](CO)[C@@H](O)[C@H](O)[C@H]2O)n1,E6SM,KOS,EC50,cytopathic effect,>200 µg/mL
O=Cc1cn([C@@H]2O[C@H](CO)[C@@H](O)[C@@H]2O)c(=O)[nH]c1=O,VERO,V3,EC50,plaque count,>1000 µM
CCN(C(=O)N(C)CCc1ccccn1)c1nc2ccc(NC(=O)CCCNC(=O)OCc3ccccc3)c(C)c2c(=O)o1,VERO,,EC90,plaque count,>12.5 µM
CCc1cn([C@@H]2O[C@H](COP(=O)(O)O)[C@@H](O)[C@H]2O)c(=O)nc1N,,F,EC50,,>400 µg/mL
Nc1nc2c(ncn2CCCC(CO)CO)c(=O)[nH]1,SIRC,C42,EC50,plaque count,1.3 µM
O=Cc1cn([C@H]2C[C@H](O)[C@@H](CO)O2)c(=O)[nH]c1=O,HELF,42-78,EC50,plaque count,>500 µM
CCCCCc1cn([C@@H]2O[C@H](COP(=O)(O)O)[C@@H](O)[C@H]2O)c(=O)nc1N,,McIntyre,EC50,,>400 µg/mL
Cc1oc(C(C)(C)C)cc1C(=O)Nc1ccc2nc(NC(C)(C)C(=O)N(C)CCc3ccccn3)oc(=O)c2c1C,VERO,,EC90,plaque count,>12.5 µM
Nc1nc(=O)n(COCCO)cc1Br,,,EC50,plaque count,>100 µM
Nc1nc2c(ncn2[C@H]2CO[C@@H](CO)C2)c(=O)[nH]1,E6SM,B2006 (TK-),EC50,cytopathic effect,250 µg/mL
Cc1nc(N(C)C(=O)Cc2ccc(-c3ccccn3)cc2)sc1S(N)(=O)=O,VERO,KD1,EC50,plaque count,0.03 µM
NC(=O)CCN(CCC(N)=O)S(=O)(=O)c1cccc(Nc2nc(Nc3cccc(S(=O)(=O)N(CCC(N)=O)CCC(N)=O)c3)nc(Nc3ccc(Nc4ccc(-c5ccc(Nc6ccc(Nc7nc(Nc8cccc(S(=O)(=O)N(CCC(N)=O)CCC(N)=O)c8)nc(Nc8cccc(S(=O)(=O)N(CCC(N)=O)CCC(N)=O)c8)n7)cc6S(=O)(=O)[O-])cc5CO)c(CO)c4)c(S(=O)(=O)[O-])c3)n2)c1,VERO,Patton,EC50,ELISA,>25 µM
CO[C@H](CO)[C@@H](O)CCn1ccc(N)nc1=O,E6SM,F,EC50,cytopathic effect,>400 µg/mL
CC(=O)OCCOCn1cc(C(F)(F)F)c(=O)[nH]c1=O,,,EC50,plaque count,>100 µM
CCc1cn([C@@H]2OC3COP(=O)(O)OC3[C@H]2O)c(=O)nc1N,,F,EC50,,>400 µg/mL
Cc1cn([C@@H]2O[C@H](CO)[C@@H](O)[C@@H]2F)c(=O)[nH]c1=O,VERO,F,EC50,plaque count,0.028 µM
O=c1[nH]c(=O)n([C@H]2C[C@H](O)[C@@H](CO)O2)cc1/C=C/Br,VERO,V3,EC50,plaque count,0.23 µM
O=C(NCc1ccc(Cl)cc1)c1cn2c3c(cc(CN4CCOCC4)cc3c1=O)OC(c1cccnc1)C2,HFF,HL-34,EC50,plaque count,7.5 µM
CC=NC(=N)c1nc(-c2ccccc2)n(Cc2ccccc2)n1,E6SM,VMW 1837,EC50,cytopathic effect,>4 µg/mL
Nc1ncnc2c1ncn2[C@@H]1O[C@H](COP(=O)(O)O)[C@@H](O)[C@H]1O,PRK,,EC50,cytopathic effect,>400 µg/mL
O=C(O)P(=O)(O)O,VERO,F-ACV-C4,EC50,plaque count,29 µM
Cc1c(NC(=O)CCNC(=O)OC(C)(C)C)ccc2nc(NCC(=O)N(C)CCc3ccccn3)oc(=O)c12,VERO,,EC90,plaque count,>20 µM
O=c1[nH]c(=O)n([C@H]2C[C@H](O)[C@@H](CO)O2)cc1/C=C/Br,Primary rabbit kidney cells,TK-,EC50,cytopathic effect,>10 µg/mL
Nc1ccn([C@@H]2O[C@H](CO)[C@@H](O)[C@@H]2O)c(=O)n1,,FORD,MIC,,4.4 µg/mL
Nc1ncnc2c1ncn2[C@@H]1O[C@H](CO)[C@@H](O)[C@@H]1O,ESM,KOS,EC50,cytopathic effect,20 µg/mL
Nc1ncnc2c1ncn2[C@@H]1O[C@H](COP(=O)(O)O[C@@H]2[C@H](O)[C@@H](COP(=O)(O)O[C@@H]3[C@H](O)[C@@H](COP(=O)(O)OP(=O)(O)OC[C@@H]4OC(O)[C@H](O)[C@H](O)[C@H]4O)O[C@H]3n3cnc4c(N)ncnc43)O[C@H]2n2cnc3c(N)ncnc32)[C@@H](O)[C@H]1O,PRK,,EC50,cytopathic effect,200 µg/mL
Nc1nc(=O)n([C@@H]2O[C@H](CO)[C@@H](O)[C@@H]2F)cc1I,BSC-1,KOS,EC50,cytopathic effect,0.2 µg/mL
O=c1ccn([C@@H]2O[C@H](CO)[C@@H](O)[C@H]2O)c(=O)[nH]1,HELF,77,EC50,plaque count,120 µM

A second listing of 9 rows from above:

SMILES	cell line	strain or isolate	endpoint	read by	value
O=c1[nH]c(=O)n([C@@H]2O[C@H](CO)[C@@H](O)[C@@H]2O)cc1/C=C/Br	HELF	77	EC50	plaque count	0.045 µM
O=c1[nH]c(=O)n([C@H]2C[C@H](O)[C@@H](CO)O2)cc1/C=C/Br	Primary rabbit kidney cells	TK-	EC50	cytopathic effect	>10 µg/mL
Nc1nc2c(ncn2C[C@]2(CO)C[C@H]2CO)c(=O)[nH]1	VERO		EC50	cytopathic effect	1.3 µg/mL
CC=NC(=N)c1nc(-c2ccc(OC)cc2)n(COCCO)n1	E6SM	VMW 1837	EC50	cytopathic effect	>200 µg/mL
CCN(C(=O)N(C)CCc1cccnc1)c1nc2ccc(NC(=O)OC(C)(C)C)c(C)c2c(=O)o1	VERO		EC90	plaque count	7.6 µM
NC1=NC2C(C=CN2CC(CO)CCO)C(=O)N1	VERO		EC50	cytopathic effect	5.3 µg/mL
CCC(=O)OCCOCn1cnc2c(=O)oc(N)nc21	VERO		EC50	plaque count	400 µM
O=c1[nH]c(=O)n([C@H]2C[C@H](O)[C@@H](CO)O2)cc1I	PRK		EC50	cytopathic effect	0.1 µg/mL
CC=NC(=N)c1nc(-c2cccc(C)c2)n(Cc2ccccc2)n1	E6SM	VMW 1837	EC50	cytopathic effect	>4 µg/mL